Values from PubChem BioAssay AID504761 (Drosophila RNAi Screening Center, 2011).

- Screen: 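Genome-wide fly cell screen for genes dengue virus requires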 (primary screen)
- Cells: D.Mel-2 cells from Drosophila
- Reagents: long dsRNA against Drosophila genes
- Conditions: infection with dengue virus type 2; dose and infection time not stated
- Measurement: 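Per well on two replicate plates, imaging gave the percent of cells positive for viral envelope protein, ranked by infection, and a nuclear count of cells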
- Reading the numbers: infection score: higher = more virus-infected cells; cell count: higher = more cells in the well
- Rule for the call: 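Low infection ranks in the two replicates (chance level up to 0.065) followed by a retest with a 1.5-fold or larger significant decrease, p below 0.05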
- Calls: active = confirmed: knock-down lowers infection; inactive = not picked or not confirmed
The screen tested about 22,000 reagents; below is an unselected part of those with a known target gene and a result. Of all reagents, 116 (0.52%) are marked active. 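Calls depend on retest data that are not deposited; infection was ranked per plate without normalising between plates; the unit of the infection score is not given.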 Raw values are not corrected between plates. Reagents against one gene are numbered here. A plus sign joins genes that one reagent is predicted to hit. Reagent sequences are not shown. Not stated in the record: the amount of reagent, the time to read-out.

Gene,reagent,"infection score, replicate 1","infection score, replicate 2","cell count, replicate 1","cell count, replicate 2",Call
Ppr-Y,1,11,4.08,6352,6689,inactive
RpS15Ab + RpS15Aa,1,13,13.9,2105,1708,inactive
RpS15Ab + RpS15Aa,2,2.94,7.51,2208,2011,inactive
eEF1alpha2 (eukaryotic translation elongation factor 1 alpha 2),1,0.56,0.02,6426,6653,inactive
eEF1alpha2 (eukaryotic translation elongation factor 1 alpha 2),2,2.26,2.44,4246,4421,inactive
Blos3,1,12.1,0.81,6191,6290,inactive
run (runt),1,4.01,5.71,5713,6283,inactive
run (runt),2,3.23,2.37,6012,6596,inactive
run (runt),3,21.1,12.4,5562,6792,inactive
Brd8 (Bromodomain containing 8),1,1.31,2.29,6349,6592,inactive
Brd8 (Bromodomain containing 8),2,15.4,14.2,5848,5705,inactive
CG14891,1,9.4,6.44,6773,6601,inactive
CG32081,1,2.02,1.48,6098,6295,inactive
CG12099,1,2.7,2.09,5932,6077,inactive
CG9263,1,3.22,5.44,6583,7004,inactive
CG9631,1,4.05,9.99,6815,7138,inactive
Lsp2 (Larval serum protein 2),1,1.14,2.24,6589,6464,inactive
Lsp2 (Larval serum protein 2),2,2.84,1.8,6312,6554,inactive
Lsp2 (Larval serum protein 2),3,3.25,5.14,2523,6406,inactive
Ipp (Inositol polyphosphate 1-phosphatase),1,0.75,2.99,6559,6428,inactive
Ipp (Inositol polyphosphate 1-phosphatase),2,5.39,3.11,6086,6083,inactive
CG15247,1,8.3,12.1,6129,5955,inactive
CG15247,2,1.77,1.7,6037,6521,inactive
CG10853,1,0.57,5.06,6894,5647,inactive
CG10853,2,1.45,3.51,5949,6302,inactive

Single entries from the entries so far:
Brd8 (Bromodomain containing 8) #2, Call → inactive
Entry of CG32081 in “infection score, replicate 2”: 1.48
Lsp2 (Larval serum protein 2) #3, Call → inactive
Under “Call”, CG10853 #2 reads inactive
CG15247 #1, Call = inactive
RpS15Ab + RpS15Aa #1, cell count, replicate 1 = 2105

Additional reagents follow.
Gene,reagent,"infection score, replicate 1","infection score, replicate 2","cell count, replicate 1","cell count, replicate 2",Call
CG14022,1,2.99,19.2,6745,5650,inactive
CG14022,2,0.86,11.7,6479,6691,inactive
Cyp4p2 (Cytochrome P450 4p2),1,17.9,9.39,6130,6303,inactive
Cyp4p2 (Cytochrome P450 4p2),2,2.35,2.84,4038,6262,inactive
Gr89a (Gustatory receptor 89a),1,2.97,1.41,6268,6170,inactive
Or19b + Or19a,1,6.64,3.89,6309,6228,inactive
nclb (no child left behind),1,6.61,5.25,7009,6056,inactive
pip (pipe),1,2.6,2,6394,6365,inactive
pip (pipe),2,,,388,344,inactive
Cyp6u1 (Cytochrome P450 6u1),1,13.8,24.8,6803,5528,inactive
Cyp6u1 (Cytochrome P450 6u1),2,2.99,3.47,5879,5816,inactive
CG14419,1,,5.18,372,5872,inactive
CG14419,2,4.06,4.18,6361,6430,inactive
sesB (stress-sensitive B),1,4.67,5.28,6033,6367,inactive
sesB (stress-sensitive B),2,38,36.3,4336,5279,inactive
Obp56a (Odorant-binding protein 56a),1,6.03,3.97,5287,5725,inactive
Obp56a (Odorant-binding protein 56a),2,2,6.12,6860,5771,inactive
CG15729 (retired record),1,2.62,2.61,6562,6710,inactive
CG15729 (retired record),2,18.3,19.9,4683,3940,inactive
CG1503,1,3.52,5,6355,7019,inactive
CG5726,1,4.88,19,5796,5348,inactive
CG5726,2,5.96,6.37,6649,6291,inactive
Act88F (Actin 88F),1,4.93,12,5418,5093,inactive
Act88F (Actin 88F),2,2.39,6.63,5686,5683,inactive
Nmdar2 (NMDA receptor 2),1,13.2,13.4,5938,3129,inactive
Nmdar2 (NMDA receptor 2),2,1.78,5.35,841,6913,inactive
Nmdar2 (NMDA receptor 2),3,5.48,1.38,6199,7272,inactive
CG4593,1,2.62,3.39,6598,6778,inactive
CG4593,2,15.1,20.5,3466,5629,inactive
CG18493,1,0.23,1.85,6978,6064,inactive
qkr58E-3 (quaking related 58E-3),1,4.14,13.6,6311,5853,inactive
CG3407,1,1.3,1.33,6756,5799,inactive
Oatp74D (Organic anion transporting polypeptide 74D),1,2.71,2.56,5723,5818,inactive
Oatp74D (Organic anion transporting polypeptide 74D),2,11.6,6.07,4926,7106,inactive
